Results from paper PMC3597823.
Where two headings read alike, the source gives them in different places.

Columns and labels:
Assay in all cases: SPR
[1] = molecular target: recombinant murine PrP (residues 23–230), Myc-tagged (murine) (UniProt P04925)
[2] = molecular target: N1 fragment of murine PrP (residues 23–111), Myc-tagged (murine) (UniProt P04925)
[3] = molecular target: N1 fragment of murine PrP (residues 23–111), Myc-tagged (murine) (UniProt P04925); remark: listed apart in the source
[4] = molecular target: N1 fragment of murine PrP (residues 23–111), Myc-tagged (murine) (UniProt P04925); remark: listed apart in the source

## synthetic Aβ_(1–42) oligomers (Aβ-derived diffusible ligands) (from UniProt P05067) (peptide)
[1]
  Kd: 30.1 nM
  koff: 5.21e-05 s⁻¹
  kon: 1690 M⁻¹ s⁻¹
[2]
  Kd: 17.3 nM
  koff: 7.44e-05 s⁻¹
  kon: 4290 M⁻¹ s⁻¹
[3]
  Kd: 40.9 nM
  koff: 6.54e-05 s⁻¹
[4]
  Kd: 19.1 nM
  koff: 7.68e-05 s⁻¹
  kon: 4030 M⁻¹ s⁻¹
